Results of unrelated studies side by side (data: NIAID ChemDB).

All rows: whole-cell or culture tests; agent: Mycobacterium tuberculosis

Percent inhibition refers to the dose given; in toxicity tests it is the harm to the cells.

SMILES,strain or isolate,read by,changes,endpoint,tested at,cell line,value
CC(=O)C1C(=O)C=C(C)OC1=O,H37Rv,-,-,MIC,-,-,>100 µg/mL
CO[C@H]1/C=C/O[C@@]2(C)Oc3c(C)c(O)c4c(=O)c(c5oc6cc(N7CCCC7)cc(=O)c6nc5c4c3=C2O)NC(=O)/C(C)=C\C=C\[C@H](C)[C@H](O)[C@@H](C)[C@@H](O)[C@@H](C)[C@H](OC(C)=O)[C@@H]1C,H37Rv,-,-,MIC,-,-,0.017 µg/mL
CC(C)(C)c1cccc(N2CCC3(CCN(Cc4ccc([N+](=O)[O-])o4)CC3)CC2)c1,Clinical Isolate 16995,resazurin,INH RFP resistant,MIC90,-,-,9.89 µg/mL
CCC(N)(CO)CO,H37Rv,-,-,MIC,-,-,>100 µg/mL
CO[C@H]1/C=C/O[C@@]2(C)Oc3c(C)c(O)c4c(O)c(c(/C=N/N5CCN(C)CC5)c(O)c4c3C2=O)NC(=O)/C(C)=C\C=C\[C@H](C)[C@H](O)[C@@H](C)[C@@H](O)[C@@H](C)[C@H](OC(C)=O)[C@@H]1C,Clinical Isolate 16995,resazurin,INH RFP resistant,MIC90,-,-,>40 µg/mL
OCCN(CCO)c1ccc2c(-c3ccccc3)cc(N(CCO)CCO)nc2n1,H37Rv,-,-,inhibition,12.5 µg/mL,-,0%
NNC(=O)c1ccncc1,Isolate 15,-,-,MIC,-,-,1 µg/mL
CCCCCCCCCCCNCCNCCCO,-,-,-,MIC,-,-,50 µM
CN1C(=O)C2(Nc3ccccc3N2)c2ccccc21,H37Rv,BACTEC,-,MIC,-,-,≥12.8 µg/mL
CC(C)c1ccc2c(c1)CC[C@H]1[C@](C)(CNCCNCCc3ccccc3Cl)CCC[C@]21C,-,-,-,MIC,-,-,50 µM
C[C@@H]1CN(c2c(F)c(N)c3c(=O)c(C(=O)O)cn(C4CC4)c3c2F)C[C@H](C)N1,Isolate 17,-,-,MIC,-,-,0.13 µg/mL
O=[N+]([O-])c1ccccc1Br,H37Rv,-,-,MIC,-,-,>100 µg/mL
CC1(C)C(=O)N(Cl)C(=O)N1Cl,H37Rv,BACTEC,-,inhibition,12.5 µg/mL,-,11%
COc1cc2[nH]ccc(=O)c2cc1OC,H37Rv,-,-,MIC,-,-,>100 µg/mL
C1CNCCN1.S=C(S)N1CCNCC1,H37Rv,BACTEC,-,MIC,-,-,≥12.5 µg/mL
O=S1(=O)c2ccccc2Oc2ccccc21,H37Rv,-,-,MIC,-,-,>100 µg/mL
CCCCCCCC/C=C/CCCCCC1CCCC(C)N1,RMP-R,-,-,MIC,-,-,6.3 µg/mL
CC(C)OC(=O)c1cc[n+](CC(=O)c2ccccc2)cc1.[Br-],-,resazurin,XDR,MIC,-,-,2 µg/mL
CC(=O)NC[C@H]1CN(c2ccc(N3CCN(Cc4ccc([N+](=O)[O-])o4)CC3)c(F)c2)C(=O)O1,16 isolates (MDR),-,-,MIC90,-,-,16 µg/mL
Cc1ccc(C(C)C)c(O)c1,H37Rv,-,-,MIC,-,-,50 µg/mL
O=C1C=C(NCCc2ccccc2)c2ccccc2C1=O,H37Rv,resazurin,-,MIC,-,VERO,3.13 µg/mL
C[C@H](O)CNCCNCCc1c[nH]c2ccccc12,-,-,-,MIC,-,-,25 µM
O=C(C(=O)c1ccc(O)cc1)c1ccc(O)cc1,H37Rv,-,-,MIC,-,-,>100 µg/mL
Clc1cc(Cl)c2c(N/N=C/c3ccc4c(c3)OCO4)ccnc2c1,H37Rv,-,-,inhibition,12.5 µg/mL,VERO,4%
Clc1ccc2c(-c3ccccc3)cc(Cl)nc2n1,H37Rv,-,-,EC50,-,-,>12.5 µg/mL
C(=C\c1ccccn1)/c1ccccc1,H37Rv,-,-,MIC,-,-,>100 µg/mL
Clc1cc(Cl)cc(-n2cc(CNC3c4ccccc4-c4ccccc43)nn2)c1,H37Rv,broth dilution,-,MIC99,-,-,>246 µM
COc1ccc(CCc2cc(OC)c3ccccc3n2)cc1OC,MT4,-,-,MIC,-,-,25 µg/mL
CCN(CC)c1ccc(/C=N/Nc2ccnc3cc(OC)ccc23)cc1,H37Rv,-,-,MIC,-,VERO,12.5 µg/mL
N#Cc1c(NC(=O)c2ccccc2)oc(-c2ccccc2)c1-c1ccccc1,H37Rv,resazurin,-,inhibition,50 µg/mL,-,6%
CCCCCCCCCCCNCCNCc1ccc(C)cc1,-,-,-,MIC,-,-,50 µM
O=c1nc(N2CCN(CC3CCCCC3)CC2)sc2c([N+](=O)[O-])cc(C(F)(F)F)cc12,Clinical Isolate 16833,resazurin,INH RFP resistant,MIC90,-,-,<0.016 µg/mL
Cc1ccc(CNCCNCc2ccccc2F)cc1,-,-,-,MIC,-,-,50 µM
O=[N+]([O-])c1cc(OCCOCc2ccccc2)cc2cccnc12,H37Rv,-,-,MIC,-,-,>100 µg/mL
N#Cc1c(NN)nc(NN)c(C#N)c1-c1ccccc1,H37Rv,BACTEC,-,inhibition,12.5 µg/mL,-,0%
CN(c1ccccc1)S(=O)(=O)c1ccc(NC(=O)CC(=O)c2ccccc2)cc1,H37Rv,-,-,MIC,-,-,100 µg/mL
COc1ccc(/C=N/Nc2ccnc3cc(Cl)ccc23)c2ccccc12,H37Rv,-,-,inhibition,12.5 µg/mL,VERO,99%
Cl.Nc1cc(N)c(O)c(N)c1,H37Rv,-,-,MIC,-,-,>100 µg/mL
COc1cc(-c2ccccc2)c2ccc(N3CCNCC3)nc2n1,H37Rv,-,-,EC50,-,-,>12.5 µg/mL
O=C(Nc1ccc(NC(=O)c2cccc(S(=O)(=O)[O-])c2)c2c1C(=O)c1ccccc1C2=O)c1cccc(S(=O)(=O)[O-])c1.[Na+].[Na+],H37Rv,-,-,MIC,-,-,100 µg/mL
CCCCc1ccc2nccc(N/N=C/c3ccc(OC)c4ccccc34)c2c1,H37Rv,-,-,MIC,-,VERO,6.25 µg/mL
CCOC(=O)/C=C1\SC(N2CCCCC2)C(=O)N1CC,H37Rv,BACTEC,-,MIC,-,-,≥12.5 µg/mL
O=[N+]([O-])c1ccc(CN2CC3CN(c4ccc(F)cc4)CC3C2)o1,H37Rv,resazurin,-,MIC90,-,-,0.062 µg/mL
Cc1cc(N=Nc2ccc(NC(=O)c3ccc(NC(=O)c4ccccc4)cc3)c3ccc(S(=O)(=O)O)cc23)ccc1N=Nc1ccc2c(O)cc(S(=O)(=O)O)cc2c1,H37Rv,BACTEC,-,inhibition,12.5 µg/mL,-,-6%
c1ccc(OCCCOc2ccccc2)cc1,H37Rv,-,-,MIC,-,-,50 µg/mL
CCOC(=O)N1CCN(c2cc(-c3ccccc3)c3cccnc3n2)CC1,H37Rv,-,-,inhibition,12.5 µg/mL,-,0%
Nc1cc(O)c(C(=O)O)cc1F,-,-,-,MIC,-,-,<12.5 µg/mL
O=S(=O)(Cc1cn(-c2ccc(Cl)cc2)nn1)C1c2ccccc2-c2ccccc21,H37Rv,broth dilution,-,MIC99,-,-,119 µM
Cc1ccc(CNCCNCc2ccco2)cc1,-,-,-,MIC,-,-,25 µM
Cc1ccc2ccccc2c1NC(=O)CCC(=O)O,H37Rv,-,-,MIC,-,-,>100 µg/mL
CN(C)c1ccc(/C=N/Nc2nnc(N/N=C/c3ccc(N(C)C)cc3Cl)c3ccccc23)c(Cl)c1,H37Rv,BACTEC,-,MIC bound,-,-,>12.5 µg/mL
O=[N+]([O-])c1ccc(CN2CC3CN(c4cccc(C(F)(F)F)c4)CC3C2)o1,H37Rv,resazurin,-,MIC90,-,-,<0.016 µg/mL
CCC12C=CCN3CC[C@@]4(c5ccc(OC)cc5N(C)[C@H]4[C@@](O)(C(=O)OC)[C@@H]1OC(C)=O)[C@@H]32,H37Rv,BACTEC,-,MIC bound,-,-,>12.5 µg/mL
O=c1ccc2c(-c3ccccc3)cc(N(CCO)CCO)nc2[nH]1,H37Rv,-,-,EC50,-,-,>12.5 µg/mL
COC1=NCN=C2SC=C(N)N=C12.Cl,H37Rv,BACTEC,-,MIC bound,-,-,>12.5 µg/mL
OCc1ccccc1Sc1ccccc1CNCCNCCCc1ccccc1,-,-,-,MIC,-,-,50 µM
O=C(O)CC1C=Cc2cc(S(=O)(=O)O)cc3cccc1c23,H37Rv,-,-,MIC,-,-,50 µg/mL
COC(=O)C(Cc1ccccc1)NC(=O)c1cccc2c1Oc1c(cccc1C(=O)NC(Cc1ccccc1)C(=O)OC)S2,H37Rv,BACTEC,-,MIC bound,-,-,>12.5 µg/mL
Cc1ccc(S(=O)(=O)Nc2oc(-c3ccccc3)c(-c3ccccc3)c2C#N)cc1,H37Rv,resazurin,-,inhibition,50 µg/mL,-,9%
CC(C)C1(Cl)CCC2C3(C)CCCC(C)(C(=O)O)C3CC(Cl)C2(Cl)C1Cl,H37Rv,BACTEC,-,MIC bound,-,-,>12.5 µg/mL
CCOC(=O)N1CCN(c2cc(-c3ccccc3)c3ccc(N)nc3n2)CC1,H37Rv,-,-,EC50,-,-,<12.5 µg/mL
CO[C@H]1/C=C/O[C@@]2(C)Oc3c(C)c(O)c4c(=O)c(c5oc6cc(N(C)C)cc(=O)c6nc5c4c3=C2O)NC(=O)/C(C)=C\C=C\[C@H](C)[C@H](O)[C@@H](C)[C@@H](O)[C@@H](C)[C@H](OC(C)=O)[C@@H]1C,H37Rv,-,-,MIC,-,-,0.008 µg/mL
CCOC(=O)c1cc2c3c(c(C(C)=O)c(O)c2[nH]1)N(C(C)=O)CC3,H37Rv,BACTEC,-,inhibition,12.5 µg/mL,-,0%
COc1cc(-n2cc(CNC3c4ccccc4-c4ccccc43)nn2)cc(OC)c1OC,H37Rv,broth dilution,-,MIC99,-,-,58.34 µM
NC[C@H]1O[C@H](O[C@H]2[C@H](O)[C@@H](O[C@H]3O[C@H](CO)[C@@H](O)[C@H](N)[C@H]3O)[C@H](N)C[C@@H]2N)[C@H](O)[C@@H](O)[C@@H]1O,Isolate 17,-,-,MIC,-,-,2 µg/mL
C/C(=N\NC(=S)N1CCN(C)CC1)c1nc2ncccc2[nH]1,H37Rv,BACTEC,-,inhibition,12.5 µg/mL,-,0%
CC(=O)N(C)c1cccc2cccc(S(=O)(=O)O)c12,H37Rv,-,-,MIC,-,-,>100 µg/mL
CO[C@H]1/C=C/O[C@@]2(C)Oc3c(C)c(O)c4c(=O)c(c5oc6cc(N7CCN(C=O)CC7)cc(=O)c6nc5c4c3=C2O)NC(=O)/C(C)=C\C=C\[C@H](C)[C@H](O)[C@@H](C)[C@@H](O)[C@@H](C)[C@H](OC(C)=O)[C@@H]1C,H37Rv,-,-,MIC,-,-,0.3 µg/mL
N#Cc1ccc(N2CC3CN(Cc4ccc([N+](=O)[O-])o4)CC3C2)cc1,H37Rv,resazurin,-,MIC90,-,-,0.06 µg/mL
C=C[C@H]1CN2CC[C@H]1C[C@@H]2[C@@H](O)c1ccnc2ccc(OC)cc12,H37Rv,BACTEC,-,MIC bound,-,-,>128 µg/mL
COc1ccc2c(-c3ccccc3)cc(N3CCNCC3)nc2n1,H37Rv,-,-,inhibition,12.5 µg/mL,-,67%
COc1ccc(-n2cc(CNC3c4ccccc4-c4ccccc43)nn2)cc1,H37Rv,broth dilution,-,MIC99,-,-,136 µM
COc1ccc(CCC2CCc3ccccc3N2C)cc1OC,MT9,-,-,MIC,-,-,>322 µg/mL
CO[C@H]1/C=C/O[C@@]2(C)Oc3c(C)c(O)c4c(=O)c(c5oc6cc(N7CCN(CC(C)C)CC7)cc(=O)c6nc5c4c3=C2O)NC(=O)/C(C)=C\C=C\[C@H](C)[C@H](O)[C@@H](C)[C@@H](O)[C@@H](C)[C@H](OC(C)=O)[C@@H]1C,H37Rv,-,-,MIC,-,-,0.017 µg/mL
COc1cc(C=O)cc(OC)c1OC,H37Rv,-,-,MIC,-,-,100 µg/mL
N=C(N)n1ncc(Cl)c(Cl)c1=O,H37Rv,BACTEC,-,inhibition,6.25 µg/mL,-,66%
O=S(=O)(Cc1cn(-c2ccccc2)nn1)C1c2ccccc2-c2ccccc21,Specimen 192,broth dilution,-,MIC99,-,-,>258 µM
O=c1[nH]c2ccc([N+](=O)[O-])cc2[nH]c1=O,H37Rv,-,-,MIC,-,-,>100 µg/mL
COc1ccc(-c2nc(-c3cnccn3)n(Cc3ccccc3)n2)cc1,H37Rv,BACTEC,-,MIC bound,-,-,>12.5 µg/mL
CCOC(c1ccccc1)c1ccccc1,H37Rv,-,-,MIC,-,-,>100 µg/mL
O=C1N(Cl)C(=O)C(c2ccccc2)(c2ccc(F)cc2)N1Cl,H37Rv,BACTEC,-,MIC bound,-,-,>12.5 µg/mL
CCCCCCCCCCCCSCCCCCCCCCCCC,H37Rv,-,-,MIC,-,-,>100 µg/mL
Cc1cccc(C(C)(C)C)c1NC(=O)/C(Cc1nc2ccc([N+](=O)[O-])cc2[nH]c1=O)=N/NC(=O)C[N+](C)(C)C.[Cl-],H37Rv,BACTEC,-,MIC bound,-,-,>12.5 µg/mL
CC(=O)Nc1ccc(/C=N/NC(N)=S)cc1F,Kanamycin-resistant,-,-,MIC,-,-,≤0.1 µg/mL

The last 6 rows once more:

{"SMILES": "COc1ccc(-c2nc(-c3cnccn3)n(Cc3ccccc3)n2)cc1", "strain or isolate": "H37Rv", "read by": "BACTEC", "endpoint": "MIC bound", "value": ">12.5 µg/mL"}
{"SMILES": "CCOC(c1ccccc1)c1ccccc1", "strain or isolate": "H37Rv", "endpoint": "MIC", "value": ">100 µg/mL"}
{"SMILES": "O=C1N(Cl)C(=O)C(c2ccccc2)(c2ccc(F)cc2)N1Cl", "strain or isolate": "H37Rv", "read by": "BACTEC", "endpoint": "MIC bound", "value": ">12.5 µg/mL"}
{"SMILES": "CCCCCCCCCCCCSCCCCCCCCCCCC", "strain or isolate": "H37Rv", "endpoint": "MIC", "value": ">100 µg/mL"}
{"SMILES": "Cc1cccc(C(C)(C)C)c1NC(=O)/C(Cc1nc2ccc([N+](=O)[O-])cc2[nH]c1=O)=N/NC(=O)C[N+](C)(C)C.[Cl-]", "strain or isolate": "H37Rv", "read by": "BACTEC", "endpoint": "MIC bound", "value": ">12.5 µg/mL"}
{"SMILES": "CC(=O)Nc1ccc(/C=N/NC(N)=S)cc1F", "strain or isolate": "Kanamycin-resistant", "endpoint": "MIC", "value": "≤0.1 µg/mL"}

An empty or dashed field is not shown. A number after MIC or MFC names an inhibition level or a share of isolates. MIC bound comes from a single tested concentration. Lines come from different laboratories, so protocols vary. ECn is the concentration giving n% inhibition of infection, replication or growth.